Pooled drug test results. Numbers come from NIAID ChemDB, via PubChem.

Common to all: enzyme or target tests; organism: HIV-1; protein: Reverse transcriptase; read-out: IC50

ICn is the concentration giving n% inhibition. Conditions beyond the fields shown may differ between rows. Blank or dashed fields: not listed here.

smiles,strain,mutations,read by,result
CCN1c2ncc(COc3cccc(C(=O)OC)c3)cc2C(=O)N(C)c2ccc(Cl)nc21,-,RT-Y181C,nucleotide incorporation / radiometric,>1 µM
Cc1cc(C)c(-n2nnnc2SCC(=O)Nc2ccc(Cl)cn2)c(C)c1,-,-,nucleotide incorporation / radiometric,<2 µM
CC(C)=CCOc1cc(NC(=S)c2ccoc2C)ccc1Cl,-,RT-K103N,-,22.3 µM
CCC1(c2cccc(Cl)c2)Oc2ccccc2-n2cccc2C1=O,WT,-,nucleotide incorporation / radiometric,0.036 µM
O=C(CSc1nnnn1-c1cccc2ccccc12)Nc1ccc(Cl)cc1Cl,-,-,nucleotide incorporation / radiometric,<2 µM
Cc1cc(S(N)(=O)=O)ccc1NC(=O)COc1ccc(Cl)cc1C(=O)c1cc(Cl)cc(C#N)c1,-,RT-V108I Y181C,fluorescence,0.0048 µM
Cc1cc(C)c(-n2nnnc2SCC(=O)Nc2ccc(F)cc2C)c(C)c1,-,-,nucleotide incorporation / radiometric,<2 µM
c1ccc(C2SCc3nc4ccccc4n32)cc1,-,RT-V108I,-,>50 µM
CCN1c2ncc(CCc3cc[nH]c(=O)c3)cc2C(=O)N(C)c2ccc(Cl)nc21,WT,-,nucleotide incorporation / radiometric,<1 µM
CCC1(c2ccc(Cn3ccsc3=N)cc2)Oc2ccccc2-n2cccc2C1=O,-,RT-Y181I,nucleotide incorporation / radiometric,>10 µM
Cc1cn([C@H]2CC[C@@H](COP(=O)(O)OP(=O)(O)OP(=O)(O)O)O2)c(=O)[nH]c1=O,-,-,nucleotide incorporation / radiometric,0.1 µM
CCN1c2ncc(CCCc3ccccc3)cc2C(=O)N(C)c2cccnc21,-,RT-Y181C,nucleotide incorporation / radiometric,>1 µM
Cc1cc(C)c(-n2nnnc2SCC(=O)Nc2ccc(C#N)cc2Cl)c(C)c1,-,-,nucleotide incorporation / radiometric,<2 µM
CCN1c2ncc(COc3cccc(N)c3)cc2C(=O)N(C)c2ccc(Cl)nc21,-,RT-Y181C,nucleotide incorporation / radiometric,<1 µM
Cc1cc(C)c(-n2nnnc2SCC(=O)Nc2ccc(C)cc2Br)c(C)c1,-,-,nucleotide incorporation / radiometric,<2 µM
COc1ccc2c(c1)N(C(=O)OC(C)C)[C@@H](CSC)C(=S)N2,-,RT-P236L,scintillation proximity / radiometric,0.11 µM
CCC1(c2ccc(CNc3ccccc3)cc2)Oc2ccccc2-n2cccc2C1=O,-,RT-Y181I,nucleotide incorporation / radiometric,>10 µM
CCN1c2ncc(COc3cccc(C(N)=O)c3)cc2C(=O)N(C)c2ccc(Cl)nc21,WT,-,nucleotide incorporation / radiometric,<1 µM
Cc1cc(C)c(-n2nnnc2SCC(=O)Nc2ccccc2Br)c(C)c1,-,-,nucleotide incorporation / radiometric,<2 µM
CCN1c2ncc(Cc3cccc(O)c3)cc2C(=O)N(C)c2ccc(Cl)nc21,-,RT-Y181C,nucleotide incorporation / radiometric,<1 µM
Cc1cc(C)c(-n2nnnc2SCC(=O)Nc2ccccc2OC(F)F)c(C)c1,-,-,nucleotide incorporation / radiometric,<2 µM
CCC1(c2ccc(CNc3cccc(F)c3)cc2)Oc2ccccc2-n2cccc2C1=O,-,RT-Y181I,nucleotide incorporation / radiometric,>10 µM
CCN1c2ncc(Cc3ccccc3)cc2C(=O)N(C)c2cccnc21,-,RT-Y181C,nucleotide incorporation / radiometric,~1 µM
Cc1ccc(-n2nnnc2SCC(=O)Nc2ccccc2[N+](=O)[O-])cc1,-,-,nucleotide incorporation / radiometric,<2 µM

For reference, 2 entries again:

smiles,strain,mutations,read by,result
COc1ccc2c(c1)N(C(=O)OC(C)C)[C@@H](CSC)C(=S)N2,-,RT-P236L,scintillation proximity / radiometric,0.11 µM
Cc1cc(C)c(-n2nnnc2SCC(=O)Nc2ccccc2OC(F)F)c(C)c1,-,-,nucleotide incorporation / radiometric,<2 µM